Assay results: patent publication US12509503B2, “Pan-neuraminidase inhibiting antibodies” (Washington University, priority 2019, dated 2025)

B1: 1G01: human anti-NA monoclonal antibody expressed as IgG1; heavy chain variable region SEQ ID NO: 44, light chain variable region SEQ ID NO: 45 (antibody, listed as Homo sapiens, V domains shown)
VH: EVQLVESGGRALRPGGSLRLSCAASGFKFDDYAMSWVRQVPGKGLEFVSGLNWNGDITAYTDSVKGRFTVSRDNAKNSLYLHINSPKPEDTALYYCARTSSWGDYTRGPEPKITWYFDLWGRGTLVTVSS
VL: DIQLTQSPSFLSASVGDRITITCRASQGIDGYLAWYQQRPGKAPNLLIYAASLLQSGVPSRFSGSGYGTEFTLTISSLQPEDFATYYCQHLDSYPLFTFGPGTKVDIK
modifications: IgG1 constant regions
B2: 1G04: human anti-NA monoclonal antibody expressed as IgG1; heavy chain variable region SEQ ID NO: 40, light chain variable region SEQ ID NO: 41 (antibody, listed as Homo sapiens, V domains shown)
VH: EVQLVESGGRVVRPGGSLRLSCAASGFTFDDYGMSWVRQAPGKGLEFVSGLNWNGDITAFTDSVKGRFTISRDNAKSSLYLQMNSLRADDTAFYYCARVRTWGEYTTREEPIHSWYFDLWGRGTLVTVSS
VL: DIQLTQSPSFLSASVGDRVTITCRASQDISSFLAWYQQKPGNAPKVLIYAASLLQSGVPSRFSGSGSGTDFTLTISSLQPEDFATYYCQQLNSYPLFTFGPGTKVDIK
modifications: IgG1 constant regions

System: influenza B NA
Assay type: binding, influenza B virus

Molecule	binding to influenza B NA in ELISA
B1	binding activity
B2	weak binding
